This note sets out measurements from patent US7432045B2 (priority 2003, dated 2008).

The test system of the experiment is Influenza virus strain PR8. More on the design: species or system mice. As to conditions: mouse, in vivo.

The molecule `CCCC[C@H](NC(=O)[C@H](CCCNC(=N)N)NC(=O)CN)C(=O)N[C@@H](CCCC)C(=O)N[C@@H](CCCNC(=N)N)C(=O)N[C@@H](CCCNC(=N)N)C(=O)N[C@@H](CCC(N)=O)C(=O)N[C@@H](CCCNC(=N)N)C(=O)N[C@@H](CCCNC(=N)N)C(=O)N[C@@H](CCCNC(=N)N)C(=O)N[C@@H](CS)C(=O)O` [n50,51TAT-C, NH2-GRnLnLRRQRRRC-COOH] yielded a mice protected of 90%.
